This is an account of results in patent publication US20100292214A1, “Compounds with Antiparasitic Activity, Applications thereof to the Treatment of Infectious Diseases Caused by Apicomplexans” (commissariat a l'Energie Atomique, priority 2007, published 2010).

The test system of test [1] is asynchronous 3D7 chloroquine-sensitive P. falciparum infected red blood cells. As to the kind of experiment: Labeled hypoxanthine incorporation assay (in vitro anti-malarial activity). The settings on record: read-out: IC50 assessed on Plasmodium Falciparum; 3D7 chloroquine-sensitive strain, infected RBC, 48 h contact, [3H]-hypoxanthine incorporation; two independent experiments in duplicates. In kind it is cell-based.

In test [2] the test system is Toxoplasma gondii RH-β1 strain. The settings on record: read-out: IC50 assessed on Toxoplama Gondii; RH-β1 strain in HFF monolayers, 48-72 hr, CPRG β-galactosidase readout, triplicates.

In general, IC50 refers to the concentration at which inhibition is half-maximal. Regarding `C[C@@H](COC(=O)N1CCC(N(C(=O)Nc2ccccc2)c2ccccc2)CC1)N(Cc1ccccc1)Cc1ccccc1`, the IC50 in test [1] was found to be 4120 nM; in test [2], 2700 nM.

Take `C[C@@H](COC(=O)N1CCC(N(C(=O)c2ccccc2)c2ccccc2)CC1)N(Cc1ccccc1)Cc1ccccc1`: the IC50 stood at 1460 nM in test [1] and 2700 nM in test [2].
